Results of unrelated studies side by side (data: NIAID ChemDB).

Common to all: growth or infection tests; agent: Candida albicans; read-out: MIC80

Lines come from different laboratories, so protocols vary.

structure | strain | changes | read by | conditions | result
O=C(Cc1ccccc1NC(=O)C(F)(F)F)NCCc1ccc2c(c1)OCO2 | Clinical isolate | Fluconazole-resistant | broth dilution | - | >64 µg/mL
Oc1ccccc1N=Cc1ccc2cccc(O)c2n1 | - | - | - | - | 31.25 µg/mL
Oc1cc2cc(c1O)Oc1ccc(cc1)CCc1ccc(O)c(O)c1Oc1cccc(c1)CC2 | BWP17-DPP3-GFP | - | broth dilution | - | >64 µg/mL
O=C(NCCc1ccc2c(c1)OCO2)Nc1ccccc1Cl | Clinical isolate | Fluconazole-resistant | broth dilution | - | >64 µg/mL
C[C@H](c1ncncc1F)[C@](O)(Cn1cncn1)c1ccc(F)cc1F | - | - | broth dilution | clinical isolate | 0.18 µM
O=C(NCCc1ccc2c(c1)OCO2)C(c1ccccc1)c1ccccc1 | Clinical isolate | Fluconazole-resistant | broth dilution | - | >64 µg/mL
CCSc1ccc(N=C(N)N)cc1 | ATCC 44859 | - | - | - | >1000 µM
CO[C@@H]1[C@@H](O)[C@H](O[C@@H]2[C@@H](O)[C@H](O[C@H]3[C@H](O)[C@@H](O)[C@H](O[C@H]4[C@H](O[C@H]5CC[C@]6(C)C7=C[C@H](O)[C@]89C(=O)O[C@@](C)(C/C=C/C(C)(C)O)[C@H]8CC[C@@]9(C)[C@@H]7CC[C@H]6C5(C)C)OC[C@@H](O[C@@H]5O[C@H](CO)[C@@H](O)[C@H](O[C@@H]6O[C@H](CO)[C@@H](O)[C@H](OC)[C@H]6O)[C@H]5O)[C@@H]4O)O[C@@H]3C)O[C@H](CO)[C@H]2O)O[C@H](CO)[C@H]1O | ATCC 76615 | - | - | - | 44.44 µM
C=CCSCC=C | 39 isolates | - | - | - | 32 µg/mL
Oc1ccc2c(c1)CCc1ccc(O)c(c1)Oc1ccc(cc1)CCc1ccc-2c(O)c1 | BWP17-DPP3-GFP | - | broth dilution | - | >64 µg/mL
O=S(=O)(O)c1cc(N=C=S)ccc1/C=C/c1ccc(N=C=S)cc1S(=O)(=O)O | SC5314 | - | turbidity | - | >99.7 µg/mL
Oc1ccc2cc1Oc1cccc(c1)CCc1ccc(O)c(c1)Oc1ccc(cc1O)CC2 | BWP17-DPP3-GFP | - | broth dilution | - | >64 µg/mL
Cc1ccc(C(=O)NCCc2ccc3c(c2)OCO3)cc1 | Clinical isolate | Fluconazole-resistant | broth dilution | - | >64 µg/mL
CCCCCCCCCCCCCCCSc1ccc(N=C(N)N)cc1 | ATCC 44859 | - | - | - | 250 µM
COc1cc(C[C@H](C)[C@H](C)Cc2ccc(O)c(O)c2)ccc1O | CCC 128-2000 | - | broth dilution | - | 31.25 µg/mL
CCCCSc1ccc(N=C(N)N)cc1 | ATCC 44859 | - | - | - | 1000 µM
CO[C@@H]1[C@@H](O)[C@H](O[C@@H]2[C@@H](O)[C@H](O[C@H]3[C@H](O)[C@@H](O)[C@H](O[C@H]4[C@H](O[C@H]5CC[C@]6(C)C7=C[C@H](O)[C@]89C(=O)O[C@@](C)(CCC=C(C)C)[C@@]8(O)CC[C@@]9(C)[C@@H]7CC[C@H]6C5(C)C)OC[C@@H](O[C@@H]5O[C@H](CO)[C@@H](O)[C@H](O[C@@H]6O[C@H](CO)[C@@H](O)[C@H](OC)[C@H]6O)[C@H]5O)[C@@H]4O)O[C@@H]3C)O[C@H](CO)[C@H]2O)O[C@H](CO)[C@H]1O | ATCC 76615 | - | - | - | 2.78 µM
Brc1ccc(C[N+]2(Cc3ccc(Br)cc3)CCc3cc4c(cc3C2)OCO4)cc1.[Br-] | Clinical isolate | Fluconazole-resistant | broth dilution | - | >64 µg/mL
C=CCSSCC=C | 39 isolates | - | - | - | 4 µg/mL
CO[C@@H]1[C@@H](O)[C@H](O[C@@H]2[C@@H](O)[C@H](O[C@H]3[C@H](O)[C@@H](O)[C@H](O[C@H]4[C@H](O[C@H]5CC[C@]6(C)C7=C[C@H](O)[C@]89C(=O)O[C@@](C)(CCC=C(C)C)[C@H]8CC[C@@]9(C)[C@@H]7CC[C@H]6C5(C)C)OC[C@@H](O[C@@H]5O[C@H](CO)[C@@H](O)[C@H](O[C@@H]6O[C@H](CO)[C@@H](O)[C@H](OC)[C@H]6O)[C@H]5O)[C@@H]4O)O[C@@H]3C)O[C@H](CO)[C@H]2O)O[C@H](CO)[C@H]1O | ATCC 76615 | - | - | - | 2.81 µM
Oc1ccc(C=Nc2ccc3cccc(O)c3n2)cc1 | - | - | - | - | 3.91 µg/mL
Oc1cc(Cl)ccc1Oc1ccc(Cl)cc1Cl | - | - | broth dilution | - | 64 µg/mL
COC(=O)[C@H]1[C@@H]2C[C@@H](O[C@@H]3O[C@H](C)[C@@H](O)[C@H](N)[C@@H]3O)/C=C/C=C/C=C/C=C/C=C/C=C/C=C/[C@H](C)[C@@H](O)[C@H](C)[C@H](C)OC(=O)C[C@H](O)C[C@H](O)[C@@H](O)CC[C@H](O)C[C@H](O)C[C@](O)(C[C@@H]1O)O2 | ATCC 76615 | - | - | - | 0.27 µM
CCCCCCOc1ccc(N=C(N)N)cc1 | ATCC 44859 | - | - | - | 125 µM
C[C@@H](c1ncncc1F)[C@](O)(Cn1cncn1)c1ccc(F)cc1F | ATCC 76615 | - | - | - | 0.01 µM
Oc1ccc(N=Nc2c(Cl)cccc2Cl)c2cccnc12 | - | - | - | - | 125 µg/mL
NC(N)=Nc1ccc(SCc2ccccc2)cc1 | ATCC 44859 | - | - | - | 250 µM
Oc1ccc2cc1Oc1ccc(cc1)CCc1cccc(O)c1-c1c(O)cccc1CC2 | BWP17-DPP3-GFP | - | broth dilution | - | >64 µg/mL
NC(N)=Nc1ccc(SC2CCCCC2)cc1 | ATCC 44859 | - | - | - | 500 µM
Fc1ccc(C2=[N+](Cc3ccc(Br)cc3)CCc3cc4c(cc32)OCO4)c(F)c1.[Br-] | Clinical isolate | Fluconazole-resistant | broth dilution | - | >64 µg/mL
COc1ccc2cc3[n+](cc2c1OC)CCc1cc2c(cc1-3)OCO2.[Cl-] | Clinical isolate | Fluconazole-resistant | broth dilution | - | 32 µg/mL
Cc1ccccc1CC(=O)NCCc1ccc2c(c1)OCO2 | Clinical isolate | Fluconazole-resistant | broth dilution | - | >64 µg/mL
CCCCCCCCCCCCCSc1ccc(N=C(N)N)cc1 | ATCC 44859 | - | - | - | 31.25 µM

For reference, 2 entries again:

structure | strain | changes | read by | conditions | result
CCSc1ccc(N=C(N)N)cc1 | ATCC 44859 | - | - | - | >1000 µM
C[C@@H](c1ncncc1F)[C@](O)(Cn1cncn1)c1ccc(F)cc1F | ATCC 76615 | - | - | - | 0.01 µM

An empty or dashed field is not shown. MIC50, MIC90 and the like: level of inhibition, or share of isolates inhibited.